Earlier results as cited in patent US20240261253A1, “DAUR[…] AND IT'S USE IN MEDICINE” (Phytotherapeutix Ltd., priority 2021, published 2024).

System: HIV
Conditions: uninfected H9 growth EC50 / anti-HIV EC50; cited from earlier work

Which therapeutic index does the source give for CC(C)=CCC/C(C)=C/CC[C@@]1(C)C=Cc2c(cc(C)c(C(=O)O)c2O)O1 [(+)-DCA, (S,E)-2-(4,8-dimethylnona-3,7-dien-1-yl)-5-hydroxy-2,7-dimethyl-2H-chromene-6-carboxylic acid] here?
Its therapeutic index is 3,710.
